Source: US20160304570A1, “Potent and selective inhibitors of nav1.3 and nav1.7” (published 2016)

What was measured:
Assay in all cases: cell-based or functional assay
[1] = target: human voltage-gated sodium channel Nav1.3 (human), Q9NY46
[2] = target: human voltage-gated sodium channel Nav1.5 (human), Q14524
[3] = target: human voltage-gated sodium channel Nav1.7 (human), Q15858

DCLGFMRKCIPDNDKCCRPNLVCSRTHKWCKYHF (modifications not checked) [[His33]GpTx-1(1-34)]
IC50, IWQ Use Nav1.3 [1]: 10 nM
IC50, IWQ Use Nav1.5 [2]: 8160 nM
IC50, IWQ Use Nav1.7 [3]: 20 nM

DCLGFMRKCIPDNDKCCRPNLVCSRTHKWCKYLF (modifications not checked) [[Leu33]GpTx-1(1-34)]
IWQ Use Nav1.3 (µM); IC50 of peak inward current, IonWorks Quattro [1]: 0.07 µM
IWQ Use Nav1.5 (µM); IC50 of peak inward current, IonWorks Quattro [2]: > 5 µM
IWQ Use Nav1.7 (µM); IC50 of peak inward current, IonWorks Quattro [3]: 0.13 µM

DCLGFMRKCIPDNDKCCRPNLVCSRTHKWCKYVI (modifications not checked) [[Ile34]GpTx-1(1-34)]
IWQ Use Nav1.3 [1]: 0.28 µM
IWQ Use Nav1.5 [2]: 10.8 µM
IWQ Use Nav1.7 [3]: 0.28 µM

DCLGFMRKCIPDNDKCCRPNLVCSRTHKWCKYNF (modifications not checked) [[Asn33]GpTx-1(1-34)]
IC50, IWQ Use Nav1.3 [1]: 70 nM
IC50, IWQ Use Nav1.5 [2]: 7940 nM
IC50, IWQ Use Nav1.7 [3]: 360 nM

DCLGFMRKCIPDNDKCCRPNLVCSRTHKWCKYVW (modifications not checked) [[Trp34]GpTx-1(1-34)]
IWQ Use Nav1.3 [1]: 0.18 µM
IWQ Use Nav1.5 [2]: 10 µM
IWQ Use Nav1.7 [3]: 0.26 µM

DCLGFMRKCIPDNDKCCRPNLVCSRTHKWCKYVK (modifications not checked) [[Lys34]GpTx-1(1-34)]
IWQ Use Nav1.3 [1]: 7.74 µM
IWQ Use Nav1.5 [2]: 18.1 µM
IWQ Use Nav1.7 [3]: 5.68 µM

DCLGFMRKCIPDNDKCCRPNLVCSRTHKWCKYVA (modifications not checked) [[Ala34]GpTx-1(1-34)]
IWQ Use Nav1.3 [1]: 4.76 µM
IWQ Use Nav1.5 [2]: 9.33 µM
IWQ Use Nav1.7 [3]: 7.19 µM

DCLGFMRKCIPDNDKCCRPNLVCSRTHKWCKYDF (modifications not checked) [[Asp33]GpTx-1(1-34)]
IC50, IWQ Use Nav1.3 [1]: 170 nM
IC50, IWQ Use Nav1.5 [2]: 8790 nM
IC50, IWQ Use Nav1.7 [3]: 770 nM

DCLGFMRKCIPDNDKCCRPNLVCSRTHKWCKYVL (modifications not checked) [[Leu34]GpTx-1(1-34)]
IWQ Use Nav1.3 [1]: 0.13 µM
IWQ Use Nav1.5 [2]: 8.46 µM
IWQ Use Nav1.7 [3]: 0.24 µM

DCLGFMRKCIPDNDKCCRPNLVCSRTHKWCKYGF (modifications not checked) [[Gly33]GpTx-1(1-34)]
IWQ Use Nav1.3 (µM); IC50 of peak inward current, IonWorks Quattro [1]: 0.04 µM
IWQ Use Nav1.5 (µM); IC50 of peak inward current, IonWorks Quattro [2]: > 5 µM
IWQ Use Nav1.7 (µM); IC50 of peak inward current, IonWorks Quattro [3]: 0.29 µM

DCLGFMRKCIPDNDKCCRPNLVCSRTHKWCKYSF (modifications not checked) [[Ser33]GpTx-1(1-34)]
IC50, IWQ Use Nav1.3 [1]: 60 nM
IC50, IWQ Use Nav1.5 [2]: 6280 nM
IC50, IWQ Use Nav1.7 [3]: 40 nM

DCLGFMRKCIPDNDKCCRPNLVCSRTHKWCKYYF (modifications not checked) [[Tyr33]GpTx-1(1-34)]
IWQ Use Nav1.3 (µM); IC50 of peak inward current, IonWorks Quattro [1]: 0.03 µM
IWQ Use Nav1.5 (µM); IC50 of peak inward current, IonWorks Quattro [2]: > 5 µM
IWQ Use Nav1.7 (µM); IC50 of peak inward current, IonWorks Quattro [3]: 0.07 µM

DCLGFMRKCIPDNDKCCRPNLVCSRTHKWCKYTF (modifications not checked) [[Thr33]GpTx-1(1-34)]
IC50, IWQ Use Nav1.3 [1]: 40 nM
IC50, IWQ Use Nav1.5 [2]: 3780 nM
IC50, IWQ Use Nav1.7 [3]: 20 nM

DCLGFMRKCIPDNDKCCRPNLVCSRTHKWCKYVR (modifications not checked) [[Arg34]GpTx-1(1-34)]
IWQ Use Nav1.3 [1]: 4.69 µM
IWQ Use Nav1.5 [2]: 8.99 µM
IWQ Use Nav1.7 [3]: 3.58 µM

YCLGFMRKCIPDNDKCCRPNLVCSRTHKWCKYVF (modifications not checked) [[Tyr1]GpTx-1(1-34)]
IWQ Use Nav1.3 [1]: 0.13 µM
IWQ Use Nav1.5 [2]: 10.6 µM
IWQ Use Nav1.7 [3]: 0.16 µM

ICLGFMRKCIPDNDKCCRPNLVCSRTHKWCKYVF (modifications not checked) [[Ile1]GpTx-1(1-34)]
IWQ Use Nav1.3 [1]: 0.07 µM
IWQ Use Nav1.5 [2]: 8.15 µM
IWQ Use Nav1.7 [3]: 0.1 µM
